Results of unrelated studies side by side (data: NIAID ChemDB).

All rows: whole-cell or culture tests; organism: HIV-1

Percent inhibition refers to the dose given; in toxicity tests it is the harm to the cells.

smiles	dose	strain	mutations	measure	read by	cell line	value
CCC(=O)c1ccc(F)c([C@@H]2C[C@@H]2NC(=O)Nc2ccc(C#N)cn2)c1O	-	LAI	NNRTI-resistant (RT M230L)	fold resistance	β-galactosidase / luminescence	TZM-bl	22.6
CC(C)[C@H](NC(=O)OCc1ccccn1)C(=O)N[C@@H](Cc1ccccc1)[C@@H](O)C[C@H](Cc1ccccc1)NC(=O)OCc1cccnc1	-	NL4-3	PR-M46I L63P	EC95	p24	MT-4	0.8 µM
CC(C)CN(CC(O)CN(CC(C)C)S(=O)(=O)c1ccc(N)cc1)S(=O)(=O)c1ccccc1	-	IIIB	-	EC90	p24	CEM	1 µM
Cc1c(O)cccc1C(=O)N[C@@H](Cc1ccccc1)[C@H](O)CN1C[C@H]2CCCC[C@H]2C[C@H]1C(=O)NC(C)(C)C	-	HXB2	-	EC95	cytopathic effect / XTT	CEM + CEM-SS	0.135 µM
COc1ccc(S(=O)(=O)N(CC(O)CN2CC(c3ccccc3)c3ccccc3C2=O)CC2CCCC2)cc1	-	IIIB	-	EC90	p24	CEM	1 µM
CCCCN(CCCC)CCCn1c(=O)c(O)c2n(c1=O)CCN(Cc1ccc(F)cc1)C2=O	-	-	-	EC95	p24	MT-4	<10 µM
C[C@H]1CN(C(=O)c2ccccc2)CCN1C(=O)C(=O)c1c[nH]c2c(F)c(F)c(F)c(F)c12	10 µM	-	-	inhibition	luciferase	HeLa + HELA CD4+/CCR5	>98%
Cc1ccc(-c2ccc3c(c2)C=C(C(=O)Nc2ccc(C[N+](C)(C)C4CCOCC4)cc2)CCC3)cc1	1 µM	TB10 CLADE C	-	inhibition	p24	PBMC	100%
Cc1cc(S(N)(=O)=O)ccc1NC(=O)COc1ccc(Cl)cc1C(=O)c1cc(F)cc(C(F)(F)F)c1	-	HXB2	RT-L100I	fold resistance	β-galactosidase	HeLa + HELA CD4+	~1
COc1ccc(S(=O)(=O)N(CC(C)C)C[C@@H](O)CCN(CCc2ccccc2)C(=O)O[C@H]2COC3OCCC32)cc1	-	IIIB	-	EC90	p24	CEM	1 µM
Cc1cc(S(N)(=O)=O)ccc1NC(=O)COc1ccc(Cl)cc1C(=O)c1cc(F)cc(C#N)c1	-	HXB2 (RT-K103N G190A) Recombinant	RT-K103N G190A	fold resistance	β-galactosidase	HeLa + HELA CD4+	~10
CN(C[C@@H](CCN1CCC2(CC1)CS(=O)(=O)c1ccccc12)c1ccc(Cl)c(Cl)c1)S(=O)(=O)c1ccccc1	-	YU2	-	EC95	-	PBMC	<12 µM
Cc1cc(OCCCS(N)(=O)=O)ccc1NC(=O)COc1ccc(Cl)cc1C(=O)c1cc(F)cc(C(F)(F)F)c1	-	HXB2	RT-K103N L100I	fold resistance	β-galactosidase	HeLa + HELA CD4+	~1
C[C@@H]1CN(C(=O)c2ccccn2)CCN1C(=O)C(=O)c1c[nH]c2c(F)cccc12	10 µM	-	-	inhibition	luciferase	HeLa + HELA CD4+/CCR5	>98%
O=c1oc2cc(O)c(O)cc2c(O)c1-c1coc2c1c(=O)oc1cc(O)c(O)cc12	0.0001 µM	IIIB	-	inhibition	MTT	MT-4	0%
C[C@H]1CN(C(=O)c2ccccc2)CCN1C(=O)C(=O)c1c[nH]c2ccc(F)cc12	10 µM	-	-	inhibition	luciferase	HeLa + HELA CD4+/CCR5	95%
O=C1c2c(O)c(=O)n(CCc3cccs3)c(=O)n2CCN1Cc1ccc(F)cc1	-	-	-	EC95	p24	MT-4	<10 µM
O=C(c1ccccc1)N(CCc1ccccc1)C[C@H](O)CN(CC1CCCC1)S(=O)(=O)C1CCCC1	-	IIIB	-	EC90	p24	CEM	1 µM
Cc1cc(OCCCN2CCOCC2)ccc1NC(=O)COc1ccc(Cl)cc1C(=O)c1cccs1	-	HXB2	RT-Y181C	fold resistance	β-galactosidase	HeLa + HELA CD4+	~1
O=C1c2c(O)c(=O)n(C(C3CC3)C3CC3)c(=O)n2CCN1Cc1ccc(F)cc1	-	-	-	EC95	p24	MT-4	<10 µM
CC(C)=CCOc1cc(NC(=S)c2ccoc2C)ccc1Cl	-	NL4-3	RT-L100I	fold resistance	p24	CEM + CEM-SS	67
C[C@H]1CN(C(=O)c2ccccc2)CCN1C(=O)C(=O)c1c[nH]c2cccc(Cl)c12	10 µM	-	-	inhibition	luciferase	HeLa + HELA CD4+/CCR5	79%
COc1ccnc2[nH]cc(C(=O)C(=O)N3C4CCC3CN(C(=O)c3ccccc3)C4)c12	-	QH0692	-	EC90	luciferase	TZM-bl	56 µM
COC(=O)c1cccc2c(C(=O)C(=O)N3CCN(C(=O)c4ccccc4)C[C@@H]3C)c[nH]c12	10 µM	-	-	inhibition	luciferase	HeLa + HELA CD4+/CCR5	>98%
Cc1cc2cn[nH]c2cc1NC(=O)COc1ccc(Cl)cc1C(=O)c1cccc(C#N)c1	-	HXB2	RT-K103N V108I	fold resistance	β-galactosidase	HeLa + HELA CD4+	~1
CC(C)n1c(=O)c(O)c2n(c1=O)C(CCN(C)C(=O)c1ccccc1)CN(Cc1ccc(F)cc1)C2=O	-	-	-	EC95	p24	MT-4	<10 µM
Cc1cc2[nH]cnc2cc1NC(=O)COc1ccc(Cl)cc1C(=O)c1cc(F)cc(C(F)(F)F)c1	-	Nevirapine-resistant (RT Y181C)	RT-Y181C	fold resistance	cytopathic effect / propidium iodide	MT-4	~1
O=C1c2c(O)c(=O)n(C34CC5CC(CC(C5)C3)C4)c(=O)n2CCN1Cc1ccc(F)cc1	-	-	-	EC95	p24	MT-4	<10 µM
COC(=O)c1cccc2[nH]cc(C(=O)C(=O)N3CCN(C(=O)c4ccccc4)CC3CO)c12	10 µM	-	-	inhibition	luciferase	HeLa + HELA CD4+/CCR5	84%
CC(c1ccccn1)n1c(=O)c(O)c2n(c1=O)CCN(Cc1ccc(F)cc1)C2=O	-	-	-	EC95	p24	MT-4	<10 µM
Cc1cc(C#N)cc(C(=O)c2cc(Cl)ccc2OCC(=O)Nc2ccc(S(N)(=O)=O)cc2C)c1	-	HXB2 (RT-K103N G190A) Recombinant	RT-K103N G190A	fold resistance	β-galactosidase	HeLa + HELA CD4+	~1
O=C(C(=O)N1CCN(C(=O)c2c(S)cccc2Cl)CC1)c1c[nH]c2cccc(F)c12	10 µM	-	-	inhibition	luciferase	HeLa + HELA CD4+/CCR5	>98%

4 of the rows above, restated:

smiles	dose	strain	mutations	measure	read by	cell line	value
COC(=O)c1cccc2[nH]cc(C(=O)C(=O)N3CCN(C(=O)c4ccccc4)CC3CO)c12	10 µM	-	-	inhibition	luciferase	HeLa + HELA CD4+/CCR5	84%
Cc1cc(OCCCN2CCOCC2)ccc1NC(=O)COc1ccc(Cl)cc1C(=O)c1cccs1	-	HXB2	RT-Y181C	fold resistance	β-galactosidase	HeLa + HELA CD4+	~1
O=C1c2c(O)c(=O)n(CCc3cccs3)c(=O)n2CCN1Cc1ccc(F)cc1	-	-	-	EC95	p24	MT-4	<10 µM
Cc1cc(S(N)(=O)=O)ccc1NC(=O)COc1ccc(Cl)cc1C(=O)c1cc(F)cc(C(F)(F)F)c1	-	HXB2	RT-L100I	fold resistance	β-galactosidase	HeLa + HELA CD4+	~1

Fold resistance: result on the changed form divided by that on wild type. Blank or dashed fields: not listed here. Neighbouring rows are from separate reports. ECn: concentration that inhibits the pathogen or its effect by n%.